# From PMC6358911, “Rationally Designed α-Conotoxin Analogues Maintained Analgesia Activity and Weakened Side Effects” (2019)
# By UniProt entry, the sequences of proteins in these tests, tags left out. Residues count along the entry.
# UniProt P36544, 23-502 limits assumed: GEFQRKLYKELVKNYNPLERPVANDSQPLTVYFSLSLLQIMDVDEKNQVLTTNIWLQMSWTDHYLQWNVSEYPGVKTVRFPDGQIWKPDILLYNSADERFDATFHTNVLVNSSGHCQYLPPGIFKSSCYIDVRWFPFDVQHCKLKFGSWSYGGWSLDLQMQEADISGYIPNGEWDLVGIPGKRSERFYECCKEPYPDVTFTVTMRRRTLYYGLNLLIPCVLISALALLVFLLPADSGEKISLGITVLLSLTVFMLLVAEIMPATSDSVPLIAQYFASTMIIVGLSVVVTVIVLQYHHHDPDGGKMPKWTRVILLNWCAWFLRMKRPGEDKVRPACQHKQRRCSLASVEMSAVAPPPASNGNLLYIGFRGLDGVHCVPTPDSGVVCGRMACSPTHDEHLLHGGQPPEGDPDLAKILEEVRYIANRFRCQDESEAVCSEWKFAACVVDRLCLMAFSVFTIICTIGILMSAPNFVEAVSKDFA
# What was measured:
# mice [1] = experiment: Autonomic movement (open field, tail suspension and forced swimming tests together); details: 5 mg/kg i.p., vs control
# mice [2] = experiment: Forced swimming test; details: 5 mg/kg i.p., 5 min, n = 10; vs control
# C. elegans [3] = experiment: Reproduction of C. elegans; details: L4-larvae, 22 °C, 72 h; vs M9 buffer control
# human α7 nAChR = human α7 nAChR (Homo sapiens, UniProt P36544); experiment: Microscale thermophoresis (MST) affinity; details: read-out: EC50 (affinity with functional α7 nAChR), Cy5-labelled human functional α7 nAChR, Monolith NT.115, 5 min, room temperature
# C. elegans [4] = experiment: Body bending and head swing frequency of C. elegans; details: L1-larvae, 22 °C, 48 h, counted within 1 min, three wells; vs M9 buffer control
# C. elegans [5] = experiment: Hatching inhibition rate of C. elegans; details: C. elegans eggs, 22 °C, 24 h, three wells; vs M9 buffer control
# mice [6] = experiment: Tail suspension test; details: 5 mg/kg i.p., 5 min, n = 10; vs control
# mice [7] = experiment: Open field test; details: 5 mg/kg i.p., 5 min, n = 10; vs control
# [8] = tested on: calcium channel on the DRG cell surface; experiment: Whole-cell patch clamp (QPatch-16); details: cotx 2.1 and cotx 2.13 vs BuIA and cotx 1.1
# mice [9] = experiment: Hot-plate test model; details: i.p., cotx 2.1 1, cotx 2.13 1.5 mg/kg, vs BuIA 1.5 and cotx 1.1 2 mg/kg
smiles,measurement,setting,value
C[C@@H](O)[C@@H]1NC(=O)[C@H](CO)NC(=O)[C@H](CO)NC(=O)[C@@H](NC(=O)CN)CSSC[C@@H](C(N)=O)NC(=O)[C@@H]2CCCN2C(=O)[C@@H]2CCCN2C1=O,"autonomic movement, in words",mice [1],did not affect the autonomic movement of mice
CC(C)C[C@@H]1NC(=O)[C@H](C(C)C)NC(=O)[C@H](C)NC(=O)[C@@H]2CSSC[C@H](NC(=O)CN)C(=O)N[C@@H](CSSC[C@@H](C(N)=O)NC(=O)[C@H](Cc3ccc(O)cc3)NC1=O)C(=O)N[C@@H](CO)C(=O)N[C@@H]([C@@H](C)O)C(=O)N1CCC[C@H]1C(=O)N1CCC[C@H]1C(=O)N2,"forced swimming times, in words",mice [2],significantly lower than the other groups (p < 0.05)
same,"autonomic movement, in words",mice [1],weakened the autonomous movement of mice significantly (p < 0.05)
same,"reproduction (number of offspring), in words",C. elegans [3],significantly lower than the other groups (P<0.05); also recorded: significantly lower than the control group and analogue groups (P<0.05)
same,EC50,human α7 nAChR,19.7 nM
same,"body bending frequency, in words",C. elegans [4],significantly lower than the other groups (P<0.05); also recorded: significantly lower than the control group and analogue groups (P<0.05)
same,"head swing frequency, in words",C. elegans [4],significantly lower than the other groups (P<0.05); also recorded: significantly lower than the control group and analogue groups (P<0.05)
same,"hatching inhibition rate, in words",C. elegans [5],significantly higher than the other groups (P<0.05); also recorded: significantly higher than the control group and analogue groups (P<0.05)
same,"tail suspended motion times, in words",mice [6],significantly lower than the other groups (p < 0.05)
same,"open field: center distance, in words",mice [7],significantly lower than the other groups (p < 0.05)
same,"open field: frequency entering peripheral area, in words",mice [7],significantly lower than the other groups (p < 0.05)
same,"open field: peripheral distance, in words",mice [7],significantly lower than the other groups (p < 0.05)
same,"open field: residence time in central area, in words",mice [7],significantly lower than the other groups (p < 0.05)
same,"open field: residence time in peripheral area, in words",mice [7],significantly higher than the other groups (p < 0.05)
same,"open field: total distances, in words",mice [7],significantly lower than the other groups (p < 0.05)
CC(C)C[C@@H]1NC(=O)[C@H](C(C)C)NC(=O)[C@H](C)NC(=O)[C@H](CC(=O)O)NC(=O)[C@@H]2CCCN2C(=O)[C@@H]2CCCN2C(=O)[C@H]([C@@H](C)O)NC(=O)[C@H](CO)NC(=O)[C@@H](NC(=O)[C@@H](N)CCCCN)CSSC[C@@H](C(N)=O)NC(=O)[C@H](Cc2ccc(O)cc2)NC1=O,"autonomic movement, in words",mice [1],did not affect the autonomic movement of mice
same,"inhibition of calcium channel compared among BuIA and analogues, in words",[8],stronger than BuIA and cotx 1.1; also recorded: significantly higher than BuIA and cotx 1.1
same,"efficacy time (onset) compared with BuIA and cotx 1.1, in words",mice [9],quicker than BuIA and cotx 1.1
CC(C)C[C@@H]1NC(=O)[C@H](C(C)C)NC(=O)[C@H](C)NC(=O)[C@H](CO)NC(=O)[C@@H]2CCCN2C(=O)[C@@H]2CCCN2C(=O)[C@H]([C@@H](C)O)NC(=O)[C@H](CO)NC(=O)[C@@H](NC(=O)[C@H](CO)NC(=O)CN)CSSC[C@@H](C(N)=O)NC(=O)[C@H](Cc2ccc(O)cc2)NC1=O,"autonomic movement, in words",mice [1],did not affect the autonomic movement of mice
same,"inhibition of calcium channel compared among BuIA and analogues, in words",[8],stronger than BuIA and cotx 1.1; also recorded: significantly higher than BuIA and cotx 1.1
same,"efficacy time (onset) compared with BuIA and cotx 1.1, in words",mice [9],quicker than BuIA and cotx 1.1

# Entries after “also recorded” stand apart in the source; their conditions may differ.
